Only a part is listed here, and it is no random draw. Active and inactive are the calls of the source. Rule as the data show it: active = z-score mostly below about -2.9 (no sharp cut-off); inactive = mostly above about -1.9.
Test system: CapD gamma-glutamyltranspeptidase (Bacillus anthracis Ames Ancestor)
Test: inhibition of CapD gamma-glutamyltranspeptidase – biochemical, fluorescence intensity, primary screen (AID 492967)
Settings: purified CapD enzyme, fluorescence intensity read-out; hits give low values

SMILES	z-score
CC(C)(C)OC(=O)N1CCC(=O)CC1	inactive: -0.19
N#CC(C#N)=Cc1ccc2c(c1)OCO2	inactive: 0.53
CC(C)(C)OC(=O)N1CCC(Nc2ccc(OC(F)(F)F)cc2)CC1	inactive: 0.635
COc1cccc(OC)c1CN1CCC(Nc2ccccc2)CC1	inactive: -0.085
c1ccc(CN2CCC(Nc3ccc4c(c3)OCO4)CC2)cc1	inactive: 1.64
FC(F)(F)Oc1ccc(NC2CCNCC2)cc1	inactive: 0.855
CC(=O)N1CCc2cc(N(C(=O)/C=C/c3ccccc3)C3CCN(Cc4ccccc4)CC3)ccc21	inactive: -0.205
CC1CN(CCc2ccccc2)CCC1=O (configuration not stated)	inactive: 0.135
N#CC1(Nc2ccccc2)CCN(Cc2ccccc2)CC1	inactive: 0.275
Cc1ccccc1NC1CC(C)(C)NC(C)(C)C1	inactive: -0.54
CCCN1CCC(Nc2ccc(OC)c(OC)c2)CC1	inactive: 0.53
CCOC(=O)N1CCC(Nc2cccc(C)c2)CC1	inactive: 0.16
CC(C)(C)c1cc2cc(N(C(=O)c3ccc(C(F)(F)F)cc3)C3CCN(Cc4ccccc4)CC3)ccc2[nH]1	inactive: -0.135
O=C1CCN(Cc2ccccc2)CC1	inactive: 0.6
CC(=O)N1CCc2ccc(N(C(=O)C(C)(C)C)C3CCN(Cc4ccccc4)CC3)cc21	inactive: 0.255
CC1CC(C(=O)N2CCN(C/C=C/c3ccccc3)CC2)C2CCCC12 (configuration not stated)	inactive: 0.205
CCOC(=O)N1CCC(Nc2ccc(F)cc2)CC1	inactive: 0.295
CCN1CCC(Nc2ccc(F)cc2)CC1	inactive: 0.975
CC1CN(C)C(C)CC1Nc1ccccc1 (configuration not stated)	inactive: -0.645
CC1CN(CCc2ccccc2)C(C)CC1=O (configuration not stated)	inactive: -0.13
CC1CN(Cc2ccccc2)CCC1=O (configuration not stated)	inactive: 1.61
CC(C)(C)OC(=O)N1CCC(Nc2ccccc2)CC1	inactive: 0.08
CN1CCC(Nc2ccc(F)cc2)CC1	inactive: 0.695
O=C1CCN(CCc2ccccc2)CC1	inactive: 0.13
NC(=O)C1(Nc2ccccc2)CCN(Cc2ccccc2)CC1	inactive: 0.655
CCCN1CCC(Nc2cc(OC)cc(OC)c2)CC1	inactive: -0.13
COc1cccc(OC)c1CN1CCC(=O)CC1	inactive: -0.73
